Pooled drug test results. Numbers come from NIAID ChemDB, via PubChem.

Common to all: tests in culture; agent: Staphylococcus aureus

Lines come from different laboratories, so protocols vary.

SMILES	strain or isolate	endpoint	value
Cc1c(NCCCO)c(F)cc2c(=O)c(C(=O)O)cn(-c3cc(N)c(F)cc3F)c12	27 isolates (methicillin-resistant)	Mean MIC	0.014 µg/mL
CCCCOCCCNc1cc2c(cc1F)c(=O)c(C(=O)O)cn2C1CC1	ATCC 6538P	MIC	>100 µg/mL
CCCCCCCCCCCC[N+](C)(C)CSCCCCC	ATCC33592	MBC	13.7 µM
O=C1O[C@@H](COc2ccon2)CN1c1ccc(N2CC[C@H](O)C2)c(F)c1	122 (novobiocin-resistant)	MIC	4 µg/mL
CC(C)(CN)CNc1cc2c(cc1F)c(=O)c(C(=O)O)cn2C1CC1	ATCC 6538P	MIC	1.56 µg/mL
CCCCCCCCCCCC[N+](C)(C)COCCCCC	ATCC33592	MIC	3.43 µM
CC[C@H]1OC(=O)[C@H](C)C(=O)[C@H](C)[C@@H](O[C@@H]2O[C@H](C)C[C@H](N(C)C)[C@H]2O)[C@@]2(C)C[C@@H](C)C(=NC(C)=O)[C@H](C)[C@@H](OC/C(=N\Oc3ccc(-c4cnccn4)s3)CO2)[C@]1(C)O	27660 (erythromycin-resistant)	MIC	0.125 µg/mL
CCCCCCCCCCCC[N+](C)(C)COCC(CC)CC	ATCC33592	MBC	27.5 µM
CC(C)NCCNc1cc2c(cc1F)c(=O)c(C(=O)O)cn2C1CC1	ATCC 6538P	MIC	>100 µg/mL
CNC(=O)N[C@@H]1CCN(c2ccc(N3C[C@H](CNc4ccon4)OC3=O)cc2F)C1	078 (oxford)	MIC	0.5 µg/mL
CCCCCCCCCCCC[N+](C)(C)COCCC	ATCC 6538	MBC	1.55 µM
Cc1c(NC2CC2)c(F)cc2c(=O)c(C(=O)O)cn(-c3cc(N)c(F)cc3F)c12	209P	MIC	0.015 µg/mL
CCSCCNc1cc2c(cc1F)c(=O)c(C(=O)O)cn2C1CC1	ATCC 6538P	MIC	>100 µg/mL
C=C1COC2[C@@H](C)C(=NC(C)=O)[C@H](C)C[C@@](C)(OC1)[C@H](O[C@@H]1O[C@H](C)C[C@H](N(C)C)[C@H]1O)[C@@H](C)C(=O)[C@@H](C)C(=O)O[C@H](CC)[C@@]2(C)O	25923 (erythromycin-susceptible)	MIC	1 µg/mL
CCN(CC)CCCCC(C)Nc1cc2c(cc1F)c(=O)c(C(=O)O)cn2C1CC1	ATCC 5278 (methicillin-resistant)	MIC	>100 µg/mL
CC[C@H]1OC(=O)[C@H](C)C(=O)[C@H](C)[C@@H](O[C@@H]2O[C@H](C)C[C@H](N(C)C)[C@H]2O)[C@@]2(C)C[C@@H](C)C(=NC(C)=O)[C@H](C)[C@@H](OC/C(=N\OCC#Cc3ncccn3)CO2)[C@]1(C)O	27660 (erythromycin-resistant)	MIC	0.25 µg/mL
N#Cc1ccc(N2CCN(c3ccc(N4C[C@H](COc5ccccn5)OC4=O)cc3F)CC2)nc1	122 (novobiocin-resistant)	MIC	2 µg/mL
CCCCCCCCCCCC[N+](C)(C)COC1CCCC1	ATCC33592	MIC	2.87 µM
Cc1c(NCCO)c(F)cc2c(=O)c(C(=O)O)cn(-c3cc(N)c(F)cc3F)c12	MR8736 (methicillin-resistant)	MIC	8 µg/mL
O=C(O)c1cn(C2CC2)c2cc(N3CCN(CCO)CC3)c(F)cc2c1=O	ATCC 5278 (methicillin-resistant)	MIC	1.56 µg/mL
CS(=O)(=O)NC1CCN(c2ccc(N3C[C@H](COc4ccon4)OC3=O)cc2F)CC1	122 (novobiocin-resistant)	MIC	8 µg/mL
CCCCN(CCCC)CCNc1cc2c(cc1F)c(=O)c(C(=O)O)cn2C1CC1	ATCC 6538P	MIC	100 µg/mL
CC[C@H]1OC(=O)[C@H](C)C(=O)[C@H](C)[C@@H](O[C@@H]2O[C@H](C)C[C@H](N(C)C)[C@H]2O)[C@@]2(C)C[C@@H](C)C(=NC(C)=O)[C@H](C)[C@@H](OC/C(=N\OCC#Cc3cncnc3)CO2)[C@]1(C)O	33591 (erythromycin methicillin-resistant)	MIC	>64 µg/mL

Repeating the first 2 entries:

SMILES,strain or isolate,endpoint,value
Cc1c(NCCCO)c(F)cc2c(=O)c(C(=O)O)cn(-c3cc(N)c(F)cc3F)c12,27 isolates (methicillin-resistant),Mean MIC,0.014 µg/mL
CCCCOCCCNc1cc2c(cc1F)c(=O)c(C(=O)O)cn2C1CC1,ATCC 6538P,MIC,>100 µg/mL